The values that follow come from US9617289B2, “RSV antiviral compounds” (JANSSEN R&D IRELAND, priority 2012, dated 2017).

No dose or concentration is given here for some results.

The data set concerns HeLa cells. Put plainly: Cytotoxicity in HeLa cells (ATP content, ATPlite kit); SI calculated as CC50/EC50. To be noted: SI is calculated as CC50/EC50, three days. The data set is classed as cell-based.

As for `CS(=O)(=O)CCCn1c(CN2C(=O)C3(CCN(C(=O)c4ccncc4)CC3)c3cc(Br)ccc32)nc2cc(Cl)ccc21` [Compound 22, 5-bromo-1-((5-chloro-1-(3-(methylsulfonyl)propyl)-1H-benzo[d]imidazol-2-yl)methyl)-1′-isonicotinoylspiro-[indoline-3,4′-piperidin]-2-one], the SI was 3515. Regarding `CS(=O)(=O)CCCn1c(CN2C(=O)C3(CN(CC(F)(F)F)C3)c3ccccc32)nc2cc(Cl)ccc21` [Compound 9, 1′-[[5-chloro-1-(3-methylsulfonylpropyl)benzimidazol-2-yl]methyl]-1-(2,2,2-trifluoroethyl)spiro[azetidine-3,3′-indoline]-2′-one], the SI is listed as greater than 234634. `CS(=O)(=O)CCCn1c(CN2C(=O)C3(CCN(S(=O)(=O)c4cccs4)CC3)c3ccccc32)nc2cc(Cl)ccc21` [Compound 102]: the SI_TOX-HELA_wt was greater than 68433.7. The same measure, in the same setting: the value for `CC(C)(O)C(=O)N1CCC2(C1)C(=O)N(Cc1nc3cc(Cl)ccc3n1CCCS(C)(=O)=O)c1ccccc12` (centres unmarked) [Compound 138, 1-((5-chloro-1-(3-(methylsulfonyl)propyl)-1H-benzo[d]imidazol-2-yl)methyl)-1′-(2-hydroxy-2-methylpropanoyl)spiro[indoline-3,3′-pyrrolidlin]-2-one] was greater than 46631.6; that for `CNC(=O)O[C@H]1C[C@@]2(C1)C(=O)N(Cc1cc3cc(Cl)ccc3n1CCCCF)c1ccccc12` [Compound 120, (1r,3r)-1′-((5-chloro-1-(4-fluorobutyl)-1H-indol-2-yl)methyl)-2′-oxospiro[cyclobutane-1,3′-indolin]-3-yl methylcarbamate] was 4817; that for `CC(C)OC(=O)N1CCC2(CC1)C(=O)N(Cc1nc3cc(Cl)ccc3n1CCCCF)c1cnccc12` [Compound 179, 1-Methylethyl 1′-{[5-chloro-1-(4-fluorobutyl)-1H-benzimidazol-2-yl]methyl}-2′-oxo-1′,2′-dihydro-1H-spiro[piperidine-4,3′-pyrrool[2,3-c]pyridine]-1-carboxylate] was 1045996. Turning to `CS(=O)(=O)CCCn1c(CN2C(=O)C3(CCOCC3)c3cnccc32)nc2cc(Cl)ccc21` [Compound 41, 1-((5-chloro-1-(3-(methylsulfonyl)propyl)-1H-benzo[d]-imidazol-2-yl)methyl)-2,3,5,6-tetrahydrospiro[pyran-4,3′-pyrrolo[3,2-c]pyridin]-2′(1′H)-one], the SI was greater than 2230.95.

`CC(C)(O)C(=O)N1CC2(C1)C(=O)N(Cc1nc3cc(Cl)ccc3n1CCCCF)c1ccccc12` [Compound 183, 1′-{[5-Chloro-1-(4-fluorobutyl)-1H-benzimidazol-2-yl]methyl}-1-(2-hydroxy-2-methylpropanoyl)spiro[azetidine-3,3′-indol]-2′(1′H)-one]: the SI_TOX-HELA_wt is listed as 1295538. Regarding `CC(=O)N1CC2(C1)C(=O)N(Cc1nc3cc(Cl)ccc3n1CCCS(C)(=O)=O)c1ccccc12` [Compound 72, 1-acetyl-1′-((5-chloro-1-(3-(methylsulfonyl)propyl)-1H-benzo[d]imidazol-2-yl)methyl)spiro[azetidine-3,3′-indolin]-2′-one], the SI was greater than 405070.

With `CC(=O)N1CC2(C1)C(=O)N(Cc1nc3cc(Cl)ccc3n1CCCC#N)c1ccccc12` [Compound 88, 4-(2-((1-acetyl-2′-oxospiro[azetidine-3,3′-indolin]-1′-yl)-methyl)-5-chloro-1H-benzo[d]imidazol-1-yl)butanenitrile], the SI is reported as greater than 253700.

As for `O=C(NS(=O)(=O)N1CCC2(CC1)C(=O)N(Cc1cc3cc(Cl)ccc3n1CCCCF)c1cnccc12)C1CC1` [Compound 184, N-[(1′-{[5-Chloro-1-(4-fluorobutyl)-1H-indol-2-yl]methyl}-2′-oxo-1′,2′-dihydro-1H-spiro[piperidine-4,3′-pyrrolo[2,3-c]pyridin]-1-yl)sulfonyl]cyclopropanecarboxamide], the SI_TOX-HELA_wt is recorded as 215909. Same read-out and setting: for `CNC(=O)O[C@H]1C[C@@]2(C1)C(=O)N(Cc1nc3cc(Cl)ccc3n1CCCC#N)c1ccccc12` [Compound 168, (1r,3r)-1′-((5-chloro-1-(3-cyanopropyl)-1H-benzo[d]imidazol-2-yl)methyl)-2′-oxospiro[cyclobutane-1,3′-indolin]-3-yl methylcarbamate] the value was 2134519; for `CC(=O)N[C@H]1C[C@]2(C1)C(=O)N(Cc1nc3cc(Cl)ccc3n1CCCC#N)c1ccccc12` [Compound 145, N-((1s,3s)-1′-((5-chloro-1-(3-cyanopropyl)-1H-benzo[d]imidazol-2-yl)methyl)-2′-oxospiro[cyclobutane-1,3′-indolin]-3-yl)acetamide], greater than 330255; for `N#CCCCn1c(CN2C(=O)C3(CCN(S(=O)(=O)c4cccs4)CC3)c3ccncc32)cc2cc(Cl)ccc21` [Compound 96, 4-(5-Chloro-2-{[2′-oxo-1-(thiophen-2-ylsulfonyl)spiro-[piperidine-4,3′-pyrrolo[2,3-c]pyridin]-1′(2′H)-yl]methyl}-1H-indol-1-yl)butanenitrile], greater than 233222. On the same count and under the same terms, the value for `COC(=O)N[C@H]1C[C@]2(C1)C(=O)N(Cc1nc3cc(Cl)ccc3n1CCCC#N)c1ccccc12` [Compound 135, methyl ((1s,3s)-1′-((5-chloro-1-(3-cyanopropyl)-1H-benzo[d]imidazol-2-yl)methyl)-2′-oxospiro[cyclobutane-1,3′-indolin]-3-yl)carbamate] was greater than 1.054e+006. Turning to `O=C1N(Cc2nc3cc(Cl)ccc3n2CCCC(F)(F)F)c2ccccc2C12CNC2` [Compound 46, 1′-((5-chloro-1-(4,4,4-trifluorobutyl)-1H-benzo[d]imidazol-2-yl)methyl)spiro[azetidine-3,3-indolin]-2′-one], the SI is listed as greater than 155253.

For the compound `N#CCCCn1c(CN2C(=O)C3(CCN(S(=O)(=O)C4CC4)CC3)c3ccncc32)cc2cc(Cl)ccc21` [Compound 81, 4-(5-chloro-2-((1-(cyclopropylsulfonyl)-2′-oxospiro-[piperidine-4,3′-pyrrolo[2,3-c]pyridin]-1′(2′H)-yl)methyl)-1H-indol-1-yl)butanenitrile], the SI is recorded as greater than 655360. Regarding `COC(=O)N1CCC2(CC1)C(=O)N(Cc1nc3cc(Cl)ccc3n1CCCCF)c1cnccc12` [Compound 178, Methyl 1′-{[5-chloro-1-(4-fluorobutyl)-1H-benzimidazol-2-yl]methyl}-2′-oxo-1′,2′-dihydro-1H-spiro[piperidine-4,3′-pyrrolo[2,3-c]pyridine]-1-carboxylate], the SI_TOX-HELA_wt was 3132492. In the case of `CC(C)(O)CN1CC2(C1)C(=O)N(Cc1nc3cc(Cl)ccc3n1CCCS(C)(=O)=O)c1ccccc12` [Compound 8, 1′-({5-chloro-1-[3-(methylsulfonyl)propyl]-1H-benzimidazol-2-yl}methyl)-1-(2-hydroxy-2-methylpropyl)spiro[azetidine-3,3′-indol]-2′(1′H)-one], the SI was greater than 127462. On the same count and under the same terms, for `CC(C)OC(=O)N1CCC2(CC1)C(=O)N(Cc1cc3cc(Cl)ccc3n1CCCC#N)c1cnccc12` [Compound 77, isopropyl 1′-((5-chloro-1-(3-cyanopropyl)-1H-indol-2-yl)-methyl)-2′-oxo-1′,2′-dihydrospiro[piperidine-4,3′-pyrrolo-[2,3-c]pyridine]-1-carboxylate] the value was greater than 96511.7; for `CS(=O)(=O)CCCn1c(CN2C(=O)C3(CN(S(=O)(=O)c4ccc(F)cc4)C3)c3ccccc32)nc2cc(Cl)ccc21` [Compound 33, 1′-({5-chloro-1-[3-(methylsulfonyl)propyl]-1H-benzimidazol-2-yl}methyl)-1-[(4-fluorophenyl)-sulfonyl]spiro[azetidine-3,3′-indol]-2′(1′H)-one], greater than 563300. Take `N#CCCCn1c(CN2C(=O)C3(CCS(=O)(=O)CC3)c3ccncc32)nc2cc(Cl)ccc21` [Compound 108, 4-{5-Chloro-2-[(1′,1′-dioxido-2-oxo-2′,3′,5′,6′,-tetrahydro-spiro[pyrrolo[2,3-c]pyridine-3,4′-thiopyran]-1(2H)-yl)-methyl]-1H-benzimidazol-1-yl}butanenitrile]: the SI_TOX-HELA_wt is on record as greater than 57149.2.

For the compound `O=C1N(Cc2nc3cc(Cl)ccc3n2CCCC(F)(F)F)c2ccccc2C12CCOCC2` [Compound 52, 1-((5-chloro-1-(4,4,4-trifluorobutyl)-1H-benzo[d]imidazol-2-yl)methyl)-2′,3′,5′,6′-tetrahydrospiro[indoline-3,4′-pyran]-2-one], the SI was 22757. For `N#CCCCn1c(CN2C(=O)C3(CN(C(=O)C4(O)CC4)C3)c3ccccc32)cc2cc(Cl)ccc21` [Compound 137], the SI_TOX-HELA_wt is 232965. As to `CC(=O)N1CC2(C1)C(=O)N(Cc1nc3cc(Cl)ccc3n1CCCS(C)(=O)=O)c1ccccc12` [Compound 30, 1-acetyl-1′-({5-chloro-1-[3-(methylsulfonyl)propyl]-1H-benzimidazol-2-yl}methyl)spiro[azetidine-3,3′-indol]-2′(1′H)-one], the SI was greater than 405070.

As to `CS(=O)(=O)CCCn1c(CN2C(=O)C3(CCNCC3)c3ccncc32)cc2cc(Cl)ccc21` [Compound 2, 1′-({5-chloro-1-[3-(methylsulfonyl)propyl]-1H-indol-2-yl}methyl)spiro[piperidine-4,3′-pyrrolo[2,3-c]pyridin]-2′(1′H)-one], the SI was greater than 2193.76.

As for `CS(=O)(=O)CCCn1c(CN2C(=O)C3(CNC3)c3ccccc32)nc2cc(Cl)ccc21` [Compound 5, 1′-({5-chloro-1-[3-(methylsulfonyl)propyl]-1H-benzimidazol-2-yl}methyl)spiro[azetidine-3,3′-indol]-2′(1′H)-one], the SI is reported as greater than 20325. The same measure, in the same setting: the value for `CC(C)(C)OC(=O)N1CCC2(CC1)C(=O)N(Cc1cc3cc(Cl)ccc3n1CCCS(C)(=O)=O)c1cnccc12` [Compound 1, tert-butyl 1′-({5-chloro-1-[3-(methylsulfonyl)propyl]-1H-indol-2-yl}methyl)-2′-oxo-1′,2′-dihydro-1H-spiro [piperidine-4,3′-pyrrolo[2,3-c]pyridine]-1-carboxylate] was 19370. Take `CC(=O)N[C@H]1C[C@@]2(C1)C(=O)N(Cc1nc3cc(Cl)ccc3n1CCCC#N)c1ccccc12` [Compound 146, N-((1r,3r)-1′-((5-chloro-1-(3-cyanopropyl)-1H-benzo[d]imidazol-2-yl)methyl)-2′-oxospiro[cyclobutane-1,3′-indolin]-3-yl)acetamide]: the SI_TOX-HELA_wt was greater than 198577.
